In the NIST ThermoML archive (doi:10.1021/je060138i):

Conditions: Crystal; visual observation

`O=P1(Cl)OCC2(CO1)COP(=O)(Cl)OC2` (stereo unspecified) gave a Normal melting temperature of 239.00 ± 2.9 °C.

± gives the expanded uncertainty stated by the source.
